Values of other authors as cited in paper PMC12391581 (Antiviral Research, 2025).

System: zoonotic influenza viruses
Conditions: swine influenza A(H1N1)v virus with NA-H275Y (sequence only, not tested phenotypically); ref NA marker tables; Baek et al., 2015; Hurt et al., 2009b; Ilyushina et al., 2010; Le et al., 2005; Nguyen et al., 2013; cited from earlier work

Row | Compound | NAI inhibition phenotype (NI/RI/HRI)
1 | CCOC(=O)C1=C[C@@H](OC(CC)CC)[C@H](NC(C)=O)[C@@H](N)C1 [Oseltamivir, oseltamivir] | HRI (HRI is a >100-fold increase)
2 | peramivir | HRI (HRI is a >100-fold increase)
